# Test system: influenza antigen (Influenza APR834)
# Assay type: in vivo
# Design: key: increased immune response from the animals (as denoted by X) as compared to the inoculums that contained pDNA-HA alone, or non-immune inoculums
# Conditions: adjuvant with pDNA-HA, intradermal, Balb/c mice, one immunization, sera 21 days, vs pDNA-HA alone
substance,measurement,value
IL-2: cytokine interleukin 2,"Increased Immune Response, pDNA-HA",X
